Experimental data reported in paper PMC1513218 (BMC Pharmacology, 2006).

Protein sequences, listed by entry. Tags and fused reporters are not part of them. Residues count along the entry.
UniProt P15917, 34-809 limits assumed: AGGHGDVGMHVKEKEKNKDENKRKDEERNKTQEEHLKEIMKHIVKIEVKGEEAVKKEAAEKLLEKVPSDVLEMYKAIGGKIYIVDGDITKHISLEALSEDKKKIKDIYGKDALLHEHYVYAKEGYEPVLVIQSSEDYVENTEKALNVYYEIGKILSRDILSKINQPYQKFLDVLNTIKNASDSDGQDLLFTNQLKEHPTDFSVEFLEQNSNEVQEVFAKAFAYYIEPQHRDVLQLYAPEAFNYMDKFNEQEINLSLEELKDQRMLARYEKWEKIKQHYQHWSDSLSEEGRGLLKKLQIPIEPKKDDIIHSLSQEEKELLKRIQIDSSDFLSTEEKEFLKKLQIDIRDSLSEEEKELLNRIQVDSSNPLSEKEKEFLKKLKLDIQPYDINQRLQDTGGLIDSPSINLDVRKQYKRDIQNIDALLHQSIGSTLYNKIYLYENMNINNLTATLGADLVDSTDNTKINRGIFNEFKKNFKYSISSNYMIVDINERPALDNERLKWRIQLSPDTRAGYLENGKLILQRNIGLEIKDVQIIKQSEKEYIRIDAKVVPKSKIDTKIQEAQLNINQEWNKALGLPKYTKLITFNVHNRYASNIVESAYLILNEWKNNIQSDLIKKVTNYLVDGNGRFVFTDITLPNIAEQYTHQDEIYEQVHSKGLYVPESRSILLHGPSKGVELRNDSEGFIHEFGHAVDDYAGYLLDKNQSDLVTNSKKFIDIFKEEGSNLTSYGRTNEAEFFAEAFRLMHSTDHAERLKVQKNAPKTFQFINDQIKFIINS
UniProt P0DPI1, whole entry, looked up: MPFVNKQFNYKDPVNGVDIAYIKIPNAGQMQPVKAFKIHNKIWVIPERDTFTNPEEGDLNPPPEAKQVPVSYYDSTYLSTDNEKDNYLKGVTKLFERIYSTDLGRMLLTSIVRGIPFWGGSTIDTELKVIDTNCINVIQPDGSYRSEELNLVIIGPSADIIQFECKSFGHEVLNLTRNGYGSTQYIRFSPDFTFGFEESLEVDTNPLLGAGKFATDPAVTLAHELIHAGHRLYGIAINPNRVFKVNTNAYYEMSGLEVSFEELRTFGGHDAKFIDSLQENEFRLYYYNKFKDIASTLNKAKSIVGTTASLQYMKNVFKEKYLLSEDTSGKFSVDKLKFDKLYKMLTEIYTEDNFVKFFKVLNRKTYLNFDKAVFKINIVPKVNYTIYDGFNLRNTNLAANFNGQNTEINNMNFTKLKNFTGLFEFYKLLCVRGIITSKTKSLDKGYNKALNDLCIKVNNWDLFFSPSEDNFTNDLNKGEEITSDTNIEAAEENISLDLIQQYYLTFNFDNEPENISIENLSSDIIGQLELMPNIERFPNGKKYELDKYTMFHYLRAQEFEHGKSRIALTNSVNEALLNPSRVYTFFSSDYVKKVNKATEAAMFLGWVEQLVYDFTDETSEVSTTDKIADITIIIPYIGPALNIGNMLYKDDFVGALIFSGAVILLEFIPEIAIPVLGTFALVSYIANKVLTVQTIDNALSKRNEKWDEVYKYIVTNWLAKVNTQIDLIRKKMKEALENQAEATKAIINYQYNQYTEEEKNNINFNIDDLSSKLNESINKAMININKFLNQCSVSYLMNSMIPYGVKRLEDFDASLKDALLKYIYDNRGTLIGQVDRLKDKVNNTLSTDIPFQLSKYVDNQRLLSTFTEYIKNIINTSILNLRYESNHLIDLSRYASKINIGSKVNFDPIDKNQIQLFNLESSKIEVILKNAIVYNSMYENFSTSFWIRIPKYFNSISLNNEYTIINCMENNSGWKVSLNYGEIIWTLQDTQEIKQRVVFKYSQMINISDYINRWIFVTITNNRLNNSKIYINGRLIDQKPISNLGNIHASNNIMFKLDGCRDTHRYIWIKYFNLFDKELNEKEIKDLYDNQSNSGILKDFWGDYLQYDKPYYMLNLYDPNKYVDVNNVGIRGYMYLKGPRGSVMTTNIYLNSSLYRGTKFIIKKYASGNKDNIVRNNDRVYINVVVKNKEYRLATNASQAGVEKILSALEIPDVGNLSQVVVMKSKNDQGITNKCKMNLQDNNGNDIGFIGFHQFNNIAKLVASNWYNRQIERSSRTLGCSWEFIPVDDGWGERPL

Assays:
[1] = molecular target: anthrax lethal factor (LF) protease (Bacillus anthracis, UniProt P15917); experiment: Lethal Factor protease assay (FRET, MAPKKide substrate); format: biochemical; settings: read-out: LF Kiapp; Mean ± SEM; MAPKKide 12.5 μM, LF 20 nM
[2] = molecular target: botulinum neurotoxin/A (BoNT/A) (Clostridium botulinum, UniProt P0DPI1); experiment: Botulinum neurotoxin/A FRET substrate cleavage assay (SNAPtide); format: biochemical; settings: read-out: Bot IC50; SNAPtide 12.5 μM

Work on CSCC[C@H](NC(=O)[C@H](CCCCN)NC(=O)[C@@H](NC(=O)[C@H](C)NC(=O)[C@H](CCCNC(=N)N)NC(=O)[C@H](CS)NC(C)=O)[C@@H](C)O)C(=O)N[C@@H](CC(C)C)C(N)=O yielded a Ki [1] of over 300 µM and an IC50 [2] of 3.5 µM.
